Anti-infective test results gathered from many reports (values: NIAID ChemDB through PubChem).

All rows: tests in culture; species: Reovirus; strain or isolate: TYPE 1

Neighbouring rows are from separate reports.

smiles | read by | cell line | measure | value
NNC(=O)Cc1nc2n(n1)CCCCC2 | - | - | MIC | >16 µg/mL
CC1(CO)CCC(Cn2nnc3c(N)ncnc32)C1(C)C | cytopathic effect | VERO | EC50 | >40 µg/mL
Nc1ncnc2c1ncn2[C@@H]1O[C@H](C=O)[C@@H](O)[C@H]1O | cytopathic effect | VERO | EC50 | >200 µg/mL
CC1(CO)CCC(Cc2nc3ncnc(N)c3[nH]2)C1(C)C | cytopathic effect | VERO | EC50 | >10 µg/mL
C[C@@]1(O)[C@@H](CO)O[C@@H](n2cnc3c(N)ncnc32)[C@@H]1O | cytopathic effect | VERO | EC50 | 20 µg/mL
CCn1nc(Cc2n[nH]c(=S)o2)nc1C | - | - | MIC | >400 µg/mL
[N-]=[N+]=N[C@H]1[C@@H](F)[C@H](n2cnc3c(N)ncnc32)O[C@@H]1CO | cytopathic effect | VERO B | EC50 | >200 µg/mL
O=c1[nH]n2c(-c3cn(-c4ccccc4)nc3-c3ccccc3)nnc2s1 | cytopathic effect | VERO | EC50 | >80 µg/mL
Cc1nc(Cc2n[nH]c(=S)n2-c2ccccc2)nn1C | - | - | MIC | >80 µg/mL
CC(Sc1ncnc2c1cnn2CCCCO)C(N)=O | cytopathic effect | VERO | EC50 | >400 µg/mL
Cc1nc(Cc2ccccc2)c2[nH]c(=S)[nH]c(=O)n12 | cytopathic effect | VERO | EC50 | >100 µg/mL
CC1(CO)CCC(Cn2nnc3c(=O)[nH]c(N)nc32)C1(C)C | cytopathic effect | VERO | EC50 | >200 µg/mL
Cc1cn(CC[C@H](O)CCO)c(=O)[nH]c1=O | cytopathic effect | VERO | EC50 | >400 µg/mL
CCON=C[C@H]1O[C@@H](n2cnc3c(N)ncnc32)[C@H](O)[C@@H]1O | cytopathic effect | VERO | EC50 | >100 µg/mL
Nc1nc2c(ncn2[C@H]2CO[C@@H](CO)C2)c(=O)[nH]1 | cytopathic effect | VERO | EC50 | >400 µg/mL
CC1=CC(=O)N(c2ccccc2)S(=O)(=O)N1COCCO | - | VERO | EC50 | >400 µg/mL
Nc1ccn([C@@H]2C=C(CO)[C@@H](O)[C@H]2O)c(=O)n1 | cytopathic effect | VERO | EC50 | 0.1 µg/mL
CC(Sc1ncnc2c1cnn2COCC(O)CO)C(N)=O | cytopathic effect | VERO | EC50 | >400 µg/mL
CC1(C)[C@@H](CO)CC[C@@]1(C)Cn1cnc2c(N)ncnc21 | cytopathic effect | VERO | EC50 | >400 µg/mL
CO[C@H](CO)[C@@H](O)CCn1cnc2c(=O)[nH]c(N)nc21 | cytopathic effect | VERO | EC50 | >400 µg/mL
Nc1ncnc2c1ncn2[C@@H]1O[C@H](C=O)C[C@H]1O | cytopathic effect | VERO | EC50 | >200 µg/mL
NC(=O)CSc1ncnc2c1cnn2COCC(O)CO | cytopathic effect | VERO | EC50 | >400 µg/mL
Nc1ncnc2c1ncn2C[C@H](O)CO | cytopathic effect | VERO | EC50 | 70 µg/mL
C/C(O)=C1\C(=N)N(COCCO)S(=O)(=O)N=C1N | - | VERO | EC50 | >400 µg/mL
CCn1nc(CC(=O)NN=C(C)C)nc1C | - | - | MIC | >80 µg/mL
CC1(CO)CCC(Cn2nnc3c(Cl)nc(N)nc32)C1(C)C | cytopathic effect | VERO | EC50 | >100 µg/mL
Nc1nccc2c1ncn2[C@@H]1C=C(CO)[C@@H](O)[C@H]1O | - | - | MIC | 0.07 µg/mL
Nc1nc(F)nc2c1ncn2[C@@H]1C=C(CO)[C@@H](O)[C@H]1O | cytopathic effect | VERO | EC50 | 0.7 µg/mL
Nn1c(-c2cn(-c3ccccc3)nc2-c2ccccc2)n[nH]c1=S | cytopathic effect | VERO | EC50 | >16 µg/mL
CC1(CO)CCC(Cn2cnc3c(=O)[nH]c(N)nc32)C1(C)C | cytopathic effect | VERO | EC50 | >400 µg/mL
Nc1ncnc2c1ncn2[C@@H]1O[C@H](C=NOCc2ccccc2)[C@@H](O)[C@H]1O | cytopathic effect | VERO | EC50 | >100 µg/mL
CCc1nc(CC(=O)NN=C(C)C)nn1CC | - | - | MIC | >80 µg/mL
Cc1cn([C@@H]2O[C@H](CO)[C@](O)(C(F)(F)F)[C@H]2O)c(=O)[nH]c1=O | cytopathic effect | VERO | EC50 | >200 µg/mL
Nc1ncnc2c1ncn2[C@@H]1CC[C@@H](O)[C@H]1O | - | - | MIC | 0.07 µg/mL
CC1(CO)CCC(Cn2cnc3c(=O)[nH]cnc32)C1(C)C | cytopathic effect | VERO | EC50 | >200 µg/mL
CC(=O)Nc1nc2c(CC(O)CO)nc(C)n2c(=O)[nH]1 | cytopathic effect | VERO | EC50 | >200 µg/mL
Cc1cn(CCCC(O)CF)c(=O)[nH]c1=O | cytopathic effect | VERO | EC50 | >400 µg/mL
[N-]=[N+]=N[C@H]1[C@@H](F)[C@H](N2C=CC(N)NC2=O)O[C@@H]1CO | cytopathic effect | VERO B | EC50 | >400 µg/mL
Nc1nc2c(ccn2[C@H]2CO[C@@H](CO)C2)c(=O)[nH]1 | cytopathic effect | VERO | EC50 | >400 µg/mL
CC1(C)[C@@H](CO)CC[C@@]1(C)Cn1cnc2c(=O)[nH]cnc21 | cytopathic effect | VERO | EC50 | >400 µg/mL
Nc1ncnc2c1ncn2CC[C@H](O)CCO | cytopathic effect | VERO | EC50 | >400 µg/mL
Nc1ccn(C(CF)CCCO)c(=O)n1 | cytopathic effect | VERO | EC50 | >400 µg/mL
Nc1nccc2c1ncn2[C@@H]1C=C[C@@H](O)[C@H]1O | - | - | MIC | 2 µg/mL
Nn1c(SCC(=O)O)nnc1-c1cn(-c2ccccc2)nc1-c1ccccc1 | cytopathic effect | VERO | EC50 | >80 µg/mL
C=CCc1nc(C)n2c(=O)[nH]c(=S)[nH]c12 | cytopathic effect | VERO | EC50 | >200 µg/mL
Nc1nccc2c1ncn2[C@@H]1CC[C@@H](O)[C@H]1O | - | - | MIC | 0.07 µg/mL
Cc1nc(CC(=O)NN)nn1C | - | - | MIC | >80 µg/mL
CCOC(=O)C1=CN(COCCOC(C)=O)S(=O)(=O)N=C1N | - | VERO | EC50 | >400 µg/mL
CC1(C)[C@@H](CO)CC[C@@]1(C)Cn1ccc(=O)[nH]c1=O | cytopathic effect | VERO | EC50 | >400 µg/mL
CC(=O)OCCOCN1C=CC(=O)N(COCCOC(C)=O)S1(=O)=O | - | VERO | EC50 | >400 µg/mL
O=C(Nn1c(-c2cn(-c3ccccc3)nc2-c2ccccc2)n[nH]c1=S)c1ccccc1 | cytopathic effect | VERO | EC50 | >16 µg/mL
CC(=O)OCCOCN1C=CC(=O)NS1(=O)=O | - | VERO | EC50 | >400 µg/mL
Nc1ccn(CC[C@H](O)CCO)c(=O)n1 | cytopathic effect | VERO | EC50 | >400 µg/mL

The first 7 rows once more:

NNC(=O)Cc1nc2n(n1)CCCCC2 ; measure: MIC ; value: >16 µg/mL
CC1(CO)CCC(Cn2nnc3c(N)ncnc32)C1(C)C ; read by: cytopathic effect ; cell line: VERO ; measure: EC50 ; value: >40 µg/mL
Nc1ncnc2c1ncn2[C@@H]1O[C@H](C=O)[C@@H](O)[C@H]1O ; read by: cytopathic effect ; cell line: VERO ; measure: EC50 ; value: >200 µg/mL
CC1(CO)CCC(Cc2nc3ncnc(N)c3[nH]2)C1(C)C ; read by: cytopathic effect ; cell line: VERO ; measure: EC50 ; value: >10 µg/mL
C[C@@]1(O)[C@@H](CO)O[C@@H](n2cnc3c(N)ncnc32)[C@@H]1O ; read by: cytopathic effect ; cell line: VERO ; measure: EC50 ; value: 20 µg/mL
CCn1nc(Cc2n[nH]c(=S)o2)nc1C ; measure: MIC ; value: >400 µg/mL
[N-]=[N+]=N[C@H]1[C@@H](F)[C@H](n2cnc3c(N)ncnc32)O[C@@H]1CO ; read by: cytopathic effect ; cell line: VERO B ; measure: EC50 ; value: >200 µg/mL

An empty or dashed field is not shown. ECn: concentration that inhibits the pathogen or its effect by n%.